Anti-infective test results gathered from many reports (values: NIAID ChemDB through PubChem).

Shared fields: target-level tests; species: HIV-1; protein: Reverse transcriptase; measure: fold resistance

Neighbouring rows are from separate reports. Fold resistance has wild type as its base.

{"smiles": "CCOCn1c(Cc2ccccc2)c(C(C)C)c(=O)[nH]c1=O", "changes": "RT-P225H", "read by": "nucleotide incorporation / radiometric", "result": "7.3"}
{"smiles": "Cc1cn([C@H]2CC[C@@H](COP(=O)(O)OP(=O)(O)OP(=O)(O)O)O2)c(=O)[nH]c1=O", "changes": "RT-I132M", "read by": "nucleotide incorporation / radiometric", "result": "0.6"}
{"smiles": "CC(C)=CCN1Cc2cc(Cl)cc3[nH]c(=O)n(c23)C[C@@H]1C", "changes": "RT-P225H", "read by": "nucleotide incorporation / radiometric", "result": "2.7"}
{"smiles": "Cc1c(Cc2c(Cl)cccc2Cl)nc(SCc2ccc(C#N)cc2)[nH]c1=O", "changes": "RT-K103N", "read by": "nucleotide incorporation / radiometric", "result": ">3.88"}
{"smiles": "Cc1ccc2c(c1)n(CCNC(=S)Nc1ccc(Br)cn1)c(=O)c1cccn12", "changes": "RT-K103N", "read by": "nucleotide incorporation", "result": "25"}
{"smiles": "CC(C)=CCOc1cc(NC(=S)c2ccoc2C)ccc1Cl", "changes": "RT-P225H", "read by": "nucleotide incorporation / radiometric", "result": "3.2"}
{"smiles": "Nc1ccn([C@@H]2CS[C@H](COP(=O)(O)OP(=O)(O)OP(=O)(O)O)O2)c(=O)n1", "changes": "RT-K65R", "read by": "nucleotide incorporation / radiometric", "result": "11.54"}
{"smiles": "c1ccc(C2SCc3nc4ccccc4n32)cc1", "changes": "RT-L100I", "result": "~2"}
{"smiles": "Cc1c(Cc2c(Cl)cccc2Cl)nc(SCc2ccc(F)cc2)[nH]c1=O", "changes": "RT-181I", "read by": "nucleotide incorporation / radiometric", "result": ">25"}
{"smiles": "Nc1nc2c(ncn2[C@H]2C[C@H](O)[C@@H](COP(=O)(O)OP(=O)(O)OP(=O)(O)O)O2)c(=O)[nH]1", "changes": "RT-K65R", "read by": "nucleotide incorporation / radiometric", "result": "1.85"}
{"smiles": "Cc1c(Cc2c(Cl)cccc2Cl)nc(SCc2ccc(Br)cc2)[nH]c1=O", "changes": "RT-181I", "read by": "nucleotide incorporation / radiometric", "result": ">1025"}
{"smiles": "Cc1cc(S(N)(=O)=O)ccc1NC(=O)COc1ccc(Cl)cc1C(=O)c1cc(Cl)cc(C#N)c1", "changes": "RT-P236L", "read by": "fluorescence", "result": "3.77"}
{"smiles": "Nc1ccn([C@H]2CC[C@@H](COP(=O)(O)OP(=O)(O)OP(=O)(O)O)O2)c(=O)n1", "changes": "RT-L74V", "read by": "nucleotide incorporation / radiometric", "result": "2.85"}
{"smiles": "O=c1c2cccn2c2ccccc2n1CCNC(=S)Nc1ccc(Br)cn1", "changes": "RT-Y181I", "read by": "nucleotide incorporation", "result": "69"}
{"smiles": "Nc1ncnc2c1ncn2[C@H]1CC[C@@H](COP(=O)(O)OP(=O)(O)OP(=O)(O)O)O1", "changes": "RT-Q151M", "read by": "nucleotide incorporation / radiometric", "result": "6.84"}
{"smiles": "O=C1c2ccncc2C(=O)N1CCNC(=S)Nc1ccc(Br)cn1", "changes": "RT-L100I", "read by": "nucleotide incorporation", "result": "14.3"}
{"smiles": "COc1ccc(CSc2nc(Cc3c(Cl)cccc3Cl)c(C)c(=O)[nH]2)cc1OC", "changes": "RT-181I", "read by": "nucleotide incorporation / radiometric", "result": ">333"}
{"smiles": "O=c1c2cccn2c2cccc(F)c2n1CCNC(=S)Nc1ccc(Br)cn1", "changes": "RT-Y188L", "read by": "nucleotide incorporation", "result": "22.2"}
{"smiles": "Cc1cn([C@H]2C=C[C@@H](COP(=O)(O)OP(=O)(O)OP(=O)(O)O)O2)c(=O)[nH]c1=O", "changes": "RT-V106A P225H", "read by": "nucleotide incorporation / radiometric", "result": "1.4"}